Consider 1 substance from patent US20170233441A1.

Assay [1] addresses BG505.SOSIP.664.201C-433C HIV-1 Env ectodomain trimer (HIV-1 strain BG505). The assay is described as follows: sedimentation equilibrium analytical ultracentrifugation with excess CD4 d1d2.
Assay [2] has the same target. The assay is described as follows: SPR.

“soluble CD4 (sCD4) (from UniProt P01730 26-396) (receptor; other documents disagree on this pair)” came in with a CD4 molecules bound per trimer (CD4 molecules per trimer) in assay [1] of 1. For the same substance, in assay [2], the fold change of KD relative to SOSIP.664 is 10 fold and the fold change of off-rate relative to SOSIP.664 was 10 fold.
